Biological target: Human immunodeficiency virus type 1 reverse transcriptase (Human immunodeficiency virus 1, UniProt Q72547)
Test: Inhibition of recombinant HIV1 reverse transcriptase assessed as inhibition of biotin-dUTP incorporation in to poly [A] x oligo[dT]15 by ELISA
Summary of the method: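 Colorimetric kit (Roche) ELISA. Homopolymer template/primer bound to the microplate, with biotin-dUTP as the labelled nucleotide and 4 ng recombinant HIV-1 RT per well. Compounds tested at several concentrations.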

IC50: 83 nM
Structure (SMILES): Cc1cc(C#N)cc(C)c1Oc1nc(Nc2ccc(C#N)cc2)nc(N)c1Br [ETRAVIRINE]

Source: ChEMBL document CHEMBL3232793, “Fused heterocyclic compounds bearing bridgehead nitrogen as potent HIV-1 NNRTIs. Part 1: design, synthesis and biological evaluation of novel 5,7-disubstituted pyrazolo[1,5-a]pyrimidine derivatives” (Bioorg Med Chem, 2014)
